Source: US8364409B2 (priority 2006, dated 2013)

Assays:
[1] = tested on: M. bovis resistant mutant INH^R-4; assay: impedance response drug susceptibility test, resistant mutant
[2] = tested on: M. bovis resistant mutant INH^R-4

Structure (SMILES): NNC(=O)c1ccncc1 [INH, isoniazid]
- "normalized" value of the slope of the impedance response ([1]; 12.5 μg/ml INH (2×MIC), slope at four hours divided by slope of untreated cells, FIG. 11): one
- effect on the viability of the resistant mutant ([1]; exposure to 12.5 μg/ml of INH): no affect on the viability
- MIC relative to MIC of the sensitive strain ([2]; mutant INH^R-4): 8 ×MIC of the sensitive strain
- MIC ([2]; spontaneous INH-resistant mutant INH^R-4, micro-broth dilution): approximately 50 μg/ml
